The values that follow come from PubChem BioAssay AID540268 (Broad Institute, 2011).

Structures are written as SMILES.

The term AC50 denotes the concentration at which the activity in the assay is half-maximal.

For this test, the system named is Plasmodium falciparum 3D7 growth, plate reader. Description: growth inhibition of yeast carrying parasite Hsp90, dose response, anti-malarial Hsp90 inhibitor project, ATP luminescence, 48 h, cherry-picked samples (AID 540268).

As for `CC(=O)OC1C(=O)OCC23CCC4(C)OC4C2OC2CC(OC(=O)C=CC=CC(=O)OCCC1C)C3(C)C21CO1` (stereo unspecified), the AC50 is 4.28 µM.
